A mixed list of measured activities; the numbers were collected in NIAID ChemDB.

All rows: tests in culture; organism: Streptococcus pneumoniae

Lines come from different laboratories, so protocols vary. MIC50, MIC90 and the like: level of inhibition, or share of isolates inhibited.

structure,endpoint,strain,value
CC[C@H]1OC(=O)[C@H](C)C(=O)[C@H](C)[C@@H](O[C@@H]2O[C@H](C)C[C@H](N(C)C)[C@H]2O)[C@@]2(C)C[C@@H](C)C(=NC(C)=O)[C@H](C)C(OC/C(=C\C=C\c3ccc(F)cc3)CO2)[C@]1(C)O,MIC,7701 (erythromycin-resistant-MEF),0.5 µg/mL
CC[C@H]1OC(=O)[C@H](C)C(=O)[C@H](C)[C@@H](O[C@@H]2O[C@H](C)C[C@H](N(C)C)[C@H]2O)[C@@]2(C)C[C@@H](C)C(=O)[C@H](C)C(OC/C=C/CO2)[C@]1(C)O,MIC,7701 (erythromycin-resistant-MEF),0.5 µg/mL
CC[C@H]1OC(=O)[C@@](C)(F)C(=O)[C@H](C)[C@@H](O[C@@H]2O[C@H](C)C[C@H](N(C)C)[C@H]2O)[C@@]2(C)C[C@@H](C)C(=N)[C@H](C)[C@@H](OC/C(=N\OCc3ccc(-c4nccs4)nc3)CO2)[C@]1(C)O,MIC,700906 (erythromycin A-resistant),<0.06 µg/mL
CO/N=C1\CN(c2nc3c(cc2F)c(=O)c(C(=O)O)cn3C2CC2)CC1CN,MIC90,37 isolates (minocycline-resistant),0.063 µg/mL
CC[C@H]1OC(=O)[C@H](C)C(=O)[C@H](C)[C@@H](O[C@@H]2O[C@H](C)C[C@H](N(C)C)[C@H]2O)[C@@]2(C)C[C@@H](C)C(=NC(C)=O)[C@H](C)C(OC/C(=N/OCc3ccccc3)CO2)[C@]1(C)O,MIC,49619 (erythromycin-susceptible),0.25 µg/mL
CC[C@H]1OC(=O)[C@H](C)C(=O)[C@H](C)[C@@H](O[C@@H]2O[C@H](C)C[C@H](N(C)C)[C@H]2O)[C@@]2(C)C[C@@H](C)C(=NC(C)=O)[C@H](C)[C@@H](OC/C(=N/OCc3ccc(-c4cccc(N)n4)s3)CO2)[C@]1(C)O,MIC,49619 (erythromycin A-susceptible),<0.06 µg/mL
CC[C@H]1OC(=O)[C@H](C)C(=O)[C@H](C)[C@@H](O[C@@H]2O[C@H](C)C[C@H](N(C)C)[C@H]2O)[C@@]2(C)C[C@@H](C)C(=NC(=O)CO)[C@H](C)C(OC/C(=C\C=C\c3ccccc3)CO2)[C@]1(C)O,MIC,49619 (erythromycin-susceptible),<0.06 µg/mL
CC[C@H]1OC(=O)[C@H](C)C(=O)[C@H](C)[C@@H](O[C@@H]2O[C@H](C)C[C@H](N(C)C)[C@H]2O)[C@@]2(C)C[C@@H](C)C(=NC(C)=O)[C@H](C)[C@@H](OC/C(=N\OCCc3ccccc3)CO2)[C@]1(C)O,MIC,49619 (erythromycin-susceptible),<0.06 µg/mL
CC[C@H]1OC(=O)[C@@](C)(F)C(=O)[C@H](C)[C@@H](O[C@@H]2O[C@H](C)C[C@H](N(C)C)[C@H]2O)[C@@]2(C)C[C@@H](C)C(=NC(C)=O)[C@H](C)[C@@H](OC/C(=N\OCc3ccc(-n4cccn4)nc3)CO2)[C@]1(C)O,MIC,49619 (erythromycin A-susceptible),<0.06 µg/mL
CC[C@H]1OC(=O)[C@H](C)[C@@H](O[C@H]2C[C@@](C)(OC)[C@@H](O)[C@H](C)O2)[C@H](C)[C@@H](O[C@H]2O[C@@H](C)C[C@@H](N(C)C)[C@@H]2O)[C@](C)(O)C[C@@H](C)C(=O)[C@H](C)[C@@H](O)[C@]1(C)O,MIC,700906 (erythromycin-resistant-ERM),>64 µg/mL
CC(=O)NC[C@H]1CN(c2ccc3c(c2)OCc2nccn2-3)C(=O)O1,MIC,SP665,0.125 µg/mL
CC[C@H]1OC(=O)[C@@](C)(F)C(=O)[C@H](C)[C@@H](O[C@@H]2O[C@H](C)C[C@H](N(C)C)[C@H]2O)[C@@]2(C)C[C@@H](C)C(=NC(C)=O)[C@H](C)[C@@H](OC/C(=N\OCc3ccc(N)nc3)CO2)[C@]1(C)O,MIC,49619 (erythromycin A-susceptible),<0.06 µg/mL
CC[C@H]1OC(=O)[C@H](C)C(=O)[C@H](C)[C@@H](O[C@@H]2O[C@H](C)C[C@H](N(C)C)[C@H]2O)[C@@]2(C)C[C@@H](C)C(=NC(C)=O)[C@H](C)[C@@H](OC/C(=N\Oc3ccc(-c4nccs4)nc3)CO2)[C@]1(C)O,MIC,49619 (erythromycin-susceptible),<0.06 µg/mL
C[C@H]1NCc2cc(-c3ccc4c(=O)c(C(=O)O)cn(C5CC5)c4c3OC(F)F)ccc21,MIC,D-1687,0.25 µg/mL
CC[C@H]1OC(=O)[C@H](C)C(=O)[C@H](C)[C@@H](O[C@@H]2O[C@H](C)C[C@H](N(C)C)[C@H]2O)[C@@]2(C)C[C@@H](C)C(=NC(C)=O)[C@H](C)[C@@H](OC/C(=N\OCc3ccc(C(N)=O)s3)CO2)[C@]1(C)O,MIC,7701 (erythromycin A-resistant),0.5 µg/mL
COc1c(N2CCNC(C)C2)ccc2c(=O)c(C(=O)O)cn(C3CC3)c12,MIC,R6-G8,8 µg/mL
CC[C@H]1OC(=O)[C@@](C)(F)C(=O)[C@H](C)[C@@H](O[C@@H]2O[C@H](C)C[C@H](N(C)C)[C@H]2O)[C@@]2(C)C[C@@H](C)C(=NC(C)=O)[C@H](C)[C@@H](OC/C(=N\OCc3ccc(C(N)=O)s3)CO2)[C@]1(C)O,MIC,7701 (erythromycin A-resistant),0.25 µg/mL
NC1CCN(c2c(F)cc3c(=O)c(C(=O)O)cn(C4CC4)c3c2Cl)C1,MIC,D-1687,0.5 µg/mL
CC[C@H]1OC(=O)[C@H](C)C(=O)[C@H](C)[C@@H](O[C@@H]2O[C@H](C)C[C@H](N(C)C)[C@H]2O)[C@@]2(C)C[C@@H](C)C(=NC(C)=O)[C@H](C)[C@@H](OC/C(=N\OCC#Cc3cncnc3)CO2)[C@]1(C)O,MIC,7701 (erythromycin-resistant-MEF),1 µg/mL
CC[C@H]1OC(=O)[C@H](C)[C@@H](O[C@H]2C[C@@](C)(OC)[C@@H](O)[C@H](C)O2)[C@H](C)[C@@H](O[C@H]2O[C@@H](C)C[C@@H](N(C)C)[C@@H]2O)[C@](C)(O)C[C@@H](C)C(=O)[C@H](C)[C@@H](O)[C@]1(C)O,MIC,700906 (erythromycin A-resistant),>64 µg/mL
CN1CCN(c2cc3c(cc2F)c(=O)c(C(=O)O)cn3C2CC2)CC1,MIC,R6-C11,2 µg/mL
CC[C@H]1OC(=O)[C@H](C)C(=O)[C@H](C)[C@@H](O[C@@H]2O[C@H](C)C[C@H](N(C)C)[C@H]2O)[C@@]2(C)C[C@@H](C)C(=NC(C)=O)[C@H](C)[C@@H](OC/C(=N\OCCCc3ccccc3)CO2)[C@]1(C)O,MIC,49619 (erythromycin-susceptible),<0.06 µg/mL
CC[C@H]1OC(=O)[C@@](C)(F)C(=O)[C@H](C)[C@@H](O[C@@H]2O[C@H](C)C[C@H](N(C)C)[C@H]2O)[C@@]2(C)C[C@@H](C)C(=NC(C)=O)[C@H](C)[C@@H](OC/C(=N\OCc3cccc(C(N)=O)c3)CO2)[C@]1(C)O,MIC,700906 (erythromycin A-resistant),1 µg/mL
CC[C@H]1OC(=O)[C@H](C)C(=O)[C@H](C)[C@@H](O[C@@H]2O[C@H](C)C[C@H](N(C)C)[C@H]2O)[C@@]2(C)C[C@@H](C)C(=NC(C)=O)[C@H](C)C(OC/C(=C\C#Cc3cccnc3)CO2)[C@]1(C)O,MIC,700906 (erythromycin-resistant-ERM),0.2 µg/mL
CC[C@H]1OC(=O)[C@H](C)C(=O)[C@H](C)[C@@H](O[C@@H]2O[C@H](C)C[C@H](N(C)C)[C@H]2O)[C@@]2(C)C[C@@H](C)C(=NC(C)=O)[C@H](C)[C@@H](OC/C(=N\OCc3ccc(-c4cccc(N)n4)s3)CO2)[C@]1(C)O,MIC,700906 (erythromycin A-resistant),<0.06 µg/mL
CCC(=O)N=C1[C@H](C)C[C@@]2(C)OC/C(=C/C=C/c3ccccc3)COC([C@H]1C)[C@](C)(O)[C@@H](CC)OC(=O)[C@H](C)C(=O)[C@H](C)[C@H]2O[C@@H]1O[C@H](C)C[C@H](N(C)C)[C@H]1O,MIC,49619 (erythromycin-susceptible),0.125 µg/mL
CN1CCN(c2ccc3c(=O)c(C(=O)O)cn(C4CC4)c3c2)CC1,MIC,R6-C11,128 µg/mL

3 of the rows above, restated:

structure | endpoint | strain | value
CC[C@H]1OC(=O)[C@H](C)[C@@H](O[C@H]2C[C@@](C)(OC)[C@@H](O)[C@H](C)O2)[C@H](C)[C@@H](O[C@H]2O[C@@H](C)C[C@@H](N(C)C)[C@@H]2O)[C@](C)(O)C[C@@H](C)C(=O)[C@H](C)[C@@H](O)[C@]1(C)O | MIC | 700906 (erythromycin A-resistant) | >64 µg/mL
CC[C@H]1OC(=O)[C@@](C)(F)C(=O)[C@H](C)[C@@H](O[C@@H]2O[C@H](C)C[C@H](N(C)C)[C@H]2O)[C@@]2(C)C[C@@H](C)C(=NC(C)=O)[C@H](C)[C@@H](OC/C(=N\OCc3cccc(C(N)=O)c3)CO2)[C@]1(C)O | MIC | 700906 (erythromycin A-resistant) | 1 µg/mL
CC[C@H]1OC(=O)[C@H](C)C(=O)[C@H](C)[C@@H](O[C@@H]2O[C@H](C)C[C@H](N(C)C)[C@H]2O)[C@@]2(C)C[C@@H](C)C(=NC(C)=O)[C@H](C)C(OC/C(=C\C=C\c3ccc(F)cc3)CO2)[C@]1(C)O | MIC | 7701 (erythromycin-resistant-MEF) | 0.5 µg/mL